Several values for one entry are separate records, joined by “and”; a condition that tells them apart may be missing. Equal values may be shown once. This is a selection; strong and weak results do not stand in their true shares. Activity calls are given as the source filed them.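 Rule for the calls: active = activation above its plate's cutoff, the mean activation of the plate's test wells plus 3 SD (cut at about 12% in these data); inactive = the rest.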
Molecular target: Mucolipin-3 (Homo sapiens) (UniProt Q8TDD5)
Test: human TRPML3 channel agonists, primary screen, cell-based, HEK293 TRPML3-YFP, Fluo-8 calcium fluorescence, 3 µM (AID 1448);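 note: 0% = DMSO only wells and 100% = carbachol wells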
Settings: at 3 µM, stronger effect = higher value, 100% = the carbachol control signal
In short: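 Material: TRPML3-YFP stable HEK293 cells | Dosing: One concentration, 3 µM nominal, 0.3% DMSO | Timing: 125 s total fluorescence read per well | Technique: Fluo-8 calcium dye fluorescence, ex 470-495, em 515-575 nm | Measure: Percent activation from peak-to-basal fluorescence ratio, scaled between DMSO and carbachol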

Chains of the proteins cited; added tags and fusions are not shown. Lines headed by an entry give the natural chain unless they say otherwise; changes in a name come on top.
UniProt Q8TDD5: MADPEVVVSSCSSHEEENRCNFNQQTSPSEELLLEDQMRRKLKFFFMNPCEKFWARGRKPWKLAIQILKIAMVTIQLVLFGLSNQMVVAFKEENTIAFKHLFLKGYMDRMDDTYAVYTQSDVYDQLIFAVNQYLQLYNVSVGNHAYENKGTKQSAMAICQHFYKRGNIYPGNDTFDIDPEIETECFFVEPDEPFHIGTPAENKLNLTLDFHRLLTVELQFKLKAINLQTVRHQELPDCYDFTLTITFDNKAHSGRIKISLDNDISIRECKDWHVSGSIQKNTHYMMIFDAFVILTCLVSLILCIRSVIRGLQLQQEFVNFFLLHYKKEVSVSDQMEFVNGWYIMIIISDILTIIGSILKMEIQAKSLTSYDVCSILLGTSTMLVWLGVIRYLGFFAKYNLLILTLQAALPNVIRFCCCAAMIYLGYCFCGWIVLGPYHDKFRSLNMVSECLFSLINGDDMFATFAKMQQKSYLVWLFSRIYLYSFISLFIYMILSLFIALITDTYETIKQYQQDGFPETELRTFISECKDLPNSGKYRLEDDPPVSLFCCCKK

| SMILES | activation |
| --- | --- |
| COc1ccc(C2=NCC(CBr)S2)cc1 (configuration not stated) | inactive: 0.33% |
| O=[N+]([O-])c1cc([N+](=O)[O-])c(CCNc2ccccc2)c([N+](=O)[O-])c1 | inactive: -0.3% |
| CCc1nc2c(n1)c1c(non1O)c1c2no[n+]1[O-] | inactive: 4.28% |
| Cc1ccc(NP(=O)(Oc2ccccc2)Oc2ccccc2)nc1 | inactive: -0.11% |
| CC(=O)N1C2C3N(C(C)=O)C1C1N(C(C)=O)C(C(N1C(C)=O)N3C(C)=O)N2C(C)=O | inactive: 0.58% |
| O=[N+]([O-])c1cccc2n[nH]nc12 | inactive: -0.2% |
| CCN(/C(=N/P(=O)(N1CCOCC1)N1CCOCC1)N1CCOCC1)c1ccc(OC)cc1 | inactive: 0.67% |
| C[N+]1=C2C=CC=CC=C2SC12C([N+](=O)[O-])=CC([N+](=O)[O-])=C[C-]2[N+](=O)[O-] (configuration not stated) | inactive: 1.74% |
| Nc1ccc([As](=O)(O)c2ccc(N)cc2)cc1 | inactive: 0.05% |
| CC1CCN(C(=O)Oc2c(Cl)cc(Cl)c3cccnc23)CC1 | inactive: -0.36% |
| CN(C)C(=O)OCCc1n(C)cc[n+]1C | inactive: 0.61% |
| CC(C)=N/N=C(\N)N[N+](=O)[O-] | inactive: 0.57% |
| O=C(Nc1cc([As](=O)(O)O)ccc1O)c1ccccc1 | inactive: 0.85% |
| O=[N+]([O-])c1ncn(CCn2ncnc2[N+](=O)[O-])n1 | inactive: -0.4% |
| CC(C)(C)C(=O)NC(Sc1ccncn1)C(Cl)(Cl)Cl (configuration not stated) | inactive: -0.11% |
| O=C(O)CNc1ccc([As](=O)(O)O)cc1 | inactive: 0.78% |
| O=[N+]([O-])c1cccc(NC2=NCC(CBr)S2)c1 (configuration not stated) | inactive: 0.57% |
| O=P(Nc1nc2ccc(Cl)cc2s1)(c1ccccc1)c1ccccc1 | inactive: -0.72% |
| CC(=O)Nc1ccc([As](=O)(O)O)cc1 | inactive: 1.01% |
| O=C(O)c1ccccc1[As](=O)(O)O | inactive: 0.78% |
| Cc1ccc(NP(=O)(Oc2ccccc2F)Oc2ccccc2F)nc1 | inactive: 0.36% |
| Cc1cc(SC(NC(=O)c2ccc(F)cc2)C(Cl)(Cl)Cl)ncn1 (configuration not stated) | inactive: -0.04% |
| CCOP(=O)(Nc1ccccc1)OCC | inactive: 0.42% and inactive: 0.61% |
| Nc1cccc2ccc([As](=O)(O)O)cc12 | inactive: 1.27% |
| CCN(N=Nc1nonc1N)c1nonc1N | inactive: 0.42% |
| Cc1ccc(N/C(=N/P(=O)(N2CCOCC2)N2CCOCC2)N2CCOCC2)cc1 | inactive: 3.37% |

| SMILES | activation |
| --- | --- |
| NC(=O)c1cc([N+](=O)[O-])cc([N+](=O)[O-])c1N | inactive: 0.34% |
| CN1CCCC(OC(=O)C(c2ccccc2)c2ccccc2)C1 (configuration not stated) | inactive: -0.09% |
| Clc1ccc(Cl)c(NC2=NCC(CBr)S2)c1 (configuration not stated) | inactive: 0.76% |
| Cc1ccc(OP(=O)(Nc2nccs2)Oc2ccc(C)cc2)cc1 | inactive: 0.38% |
| COc1ccccc1OP(=O)(Nc1ccc(C)cn1)Oc1ccccc1OC | inactive: 0.1% |
| O=C(NC(Sc1ccncn1)C(Cl)(Cl)Cl)c1ccccc1 (configuration not stated) | inactive: 0.45% |
| Cc1c2non([O-])c-2c(C)[n+](=O)[n+]1[O-] | inactive: 1.39% |
| Oc1ccccc1CNc1ccccn1 | inactive: 0.13% |
| Nc1cc(N)c2nonc2c1[N+](=O)[O-] | inactive: 0.42% |
| CC(C)CC(=O)NC(Sc1ccc(Cl)cc1)C(Cl)(Cl)Cl (configuration not stated) | inactive: -0.7% |
| CCOc1ccc(C2=NCC(CBr)S2)cc1 (configuration not stated) | inactive: 0.84% |
| O=P1(Nc2nc3ccc(Cl)cc3s2)COc2ccccc2O1 (configuration not stated) | inactive: 0.11% |
| CC(C)(C)C(=O)NC(Sc1ccccc1)C(Cl)(Cl)Cl (configuration not stated) | inactive: 0.25% |
| CC(=O)Nc1ccc(Oc2c([N+](=O)[O-])cc([N+](=O)[O-])cc2[N+](=O)[O-])cc1 | inactive: 0.43% |
| CC(=O)Nc1ccc([As](=O)(O)O)c(O)c1 | inactive: 0.71% |
| Cc1ccc(NP(=O)(Oc2cccc(C)c2)Oc2cccc(C)c2)nc1 | inactive: -0.73% |
| CCOC(=O)NC(Sc1ccccc1)C(Cl)(Cl)Cl (configuration not stated) | inactive: -0.28% |
| c1ccc(-c2nn[nH]n2)c(-c2nn[nH]n2)c1 | inactive: 0.18% |
| O=C(NC1CCS(=O)(=O)C1)NP(=S)(Oc1ccccc1)Oc1ccccc1 (configuration not stated) | inactive: 0.1% |
| CCNC(=S)/N=C(\N)N[N+](=O)[O-] | inactive: 0.26% |
| CCC(=O)N1C2C3N(C(=O)CC)C1C1N(C(=O)CC)C(C(N1C(=O)CC)N3C(=O)CC)N2C(=O)CC | inactive: 0.06% |
| CC(=O)NC(SC(=S)N(CC(C)C)CC(C)C)C(Cl)(Cl)Cl (configuration not stated) | inactive: 0.18% |
| Cc1ccc(OP(=O)(Nc2ccccn2)Oc2ccc(C)cc2)cc1 | inactive: 0.6% |
| COC(=O)c1cc2c(s1)N=C(c1ccccc1)N(C)P2(=O)N1CCOCC1 (configuration not stated) | inactive: -0.11% |
| O=c1c2cc([N+](=O)[O-])ccc2[nH]c2c([N+](=O)[O-])cc([N+](=O)[O-])cc12 | active: 21.9% |
| CN(C)C(=O)Oc1noc2ccccc12 | inactive: 0.37% |

Source: PubChem BioAssay AID1448 (The Scripps Research Institute Molecular Screening Center, 2008)
